Measurements reported in PubChem BioAssay AID624099 (ICCB-Longwood, 2012)

- Assay: 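Knock-downs relieving repression by E2 of an HPV18 LCR luciferase reporter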 (primary screen)
- Cell system: human C33A cervical carcinoma cells (HPV-negative) stably expressing BPV1 E2 and an HPV18 LCR luciferase reporter
- Reagent: siRNA pool against human genes, 40 nM
- Timing: 72 h
- Detection: 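Per-well luciferase luminescence, z-scored on each plate against the plate mean and SD with control wells left out, then averaged across three replicate plates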
- Reading the numbers: mean z-score and z-score: higher = stronger reporter signal, weaker E2 silencing
- Active means: 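Hit if mean z-score reaches 2 and two or more of three replicate z-scores also reach 2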
The deposit covers about 21,000 reagents; shown is an unselected part. In the full data, 497 (2.4%) got an active call. 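Higher z means weaker E2 silencing; only reporter increases were scored, and knock-downs that hurt cell survival may mask genuine repressor factors.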 Entries without a mark were called inactive. The numbers tell different reagents against one gene apart.

The first 2 entries as a preview:
| gene | pool no. | mean z-score | z-score, replicate A | z-score, replicate B | z-score, replicate C |
| --- | --- | --- | --- | --- | --- |
| OR4A5 (olfactory receptor family 4 subfamily A member 5) | 1 | -0.2 | -0.09 | -0.6 | 0.1 |
| PTH2R (parathyroid hormone 2 receptor) | 1 | -0.9 | -0.92 | -0.74 | -1.03 |

Results, from the start:
| gene | pool no. | mean z-score | z-score, replicate A | z-score, replicate B | z-score, replicate C |
| --- | --- | --- | --- | --- | --- |
| OR4A5 (olfactory receptor family 4 subfamily A member 5) | 1 | -0.2 | -0.09 | -0.6 | 0.1 |
| PTH2R (parathyroid hormone 2 receptor) | 1 | -0.9 | -0.92 | -0.74 | -1.03 |
| RGS1 (regulator of G protein signaling 1) | 1 | -0.81 | -0.46 | -1.03 | -0.94 |
| IGDCC3 (immunoglobulin superfamily DCC subclass member 3) | 1 | 4.64 (active) | 4.32 | 4.58 | 5.01 |
| DCP1A (decapping mRNA 1A) | 1 | -0.71 | -0.7 | -0.62 | -0.83 |
| KCNJ8 (potassium inwardly rectifying channel subfamily J member 8) | 1 | -0.29 | 0 | -0.3 | -0.56 |
| HDDC2 (HD domain containing 2) | 1 | -0.1 | -0.52 | 0.4 | -0.16 |
| PABPC5 (poly(A) binding protein cytoplasmic 5) | 1 | -0.73 | -0.87 | -1.28 | -0.05 |
| USP37 (ubiquitin specific peptidase 37) | 1 | -1.48 | -1.52 | -1.42 | -1.5 |
| ERFL (ETS repressor factor like) | 1 | -0.02 | -0.15 | -0.01 | 0.1 |
| TTC23L (tetratricopeptide repeat domain 23 like) | 1 | -0.74 | -0.48 | -0.86 | -0.89 |
| CABCOCO1 (ciliary associated calcium binding coiled-coil 1) | 1 | -0.77 | -0.93 | -0.75 | -0.62 |
| CCDC150 (coiled-coil domain containing 150) | 1 | -0.01 | -0.18 | -0.12 | 0.28 |
| CCDC150 (coiled-coil domain containing 150) | 2 | 0.92 | 0.65 | 0.62 | 1.48 |
| SARS1 (seryl-tRNA synthetase 1) | 1 | 0.6 | 0.55 | 0.32 | 0.95 |
| GBF1 | 1 | -2.86 | -3.01 | -2.4 | -3.19 |
| SPECC1 | 1 | -0.21 | -0.21 | -0.04 | -0.39 |
| RPS20 (ribosomal protein S20) | 1 | -1.85 | -1.99 | -1.98 | -1.59 |
| PIK3R3 (phosphoinositide-3-kinase regulatory subunit 3) | 1 | -1.54 | -1.78 | -1.38 | -1.46 |
| GSTCD (glutathione S-transferase C-terminal domain containing) | 1 | 0.12 | -0.96 | 1.7 | -0.38 |
| NSUN6 (NOP2/Sun RNA methyltransferase 6) | 1 | 3 (active) | 3.51 | 3 | 2.49 |
| RHOJ (ras homolog family member J) | 1 | 1.36 | 1.21 | 1.4 | 1.49 |
| PCF11 (PCF11 cleavage and polyadenylation factor subunit) | 1 | 1.63 | 1.47 | 1.89 | 1.52 |
| CX3CL1 (C-X3-C motif chemokine ligand 1) | 1 | 0.61 | 0.33 | 0.63 | 0.88 |
| GNAO1 (G protein subunit alpha o1) | 1 | 0.25 | 0.49 | 0 | 0.27 |
| TSBP1 (testis expressed basic protein 1) | 1 | 0.71 | 0.68 | 0.53 | 0.91 |
| AK4 (adenylate kinase 4) | 1 | -1.03 | -0.8 | -1.19 | -1.09 |
| AK4 (adenylate kinase 4) | 2 | 0.87 | 0.34 | 0.91 | 1.36 |
| ATP6V1E2 (ATPase H+ transporting V1 subunit E2) | 1 | -0.4 | -0.26 | -0.86 | -0.09 |
| ASB5 (ankyrin repeat and SOCS box containing 5) | 1 | 0.93 | 0.96 | 0.83 | 0.99 |
| SLAIN1 (SLAIN family member 1) | 1 | 1.09 | 0.94 | 1.1 | 1.24 |
| ADCY5 (adenylate cyclase 5) | 1 | 1.43 | 1.32 | 1.63 | 1.34 |
| CBLN4 (cerebellin 4 precursor) | 1 | -0.6 | -0.85 | -0.55 | -0.41 |
| NR2E3 (nuclear receptor subfamily 2 group E member 3) | 1 | 0.28 | 0.37 | 0.42 | 0.05 |
| ESM1 (endothelial cell specific molecule 1) | 1 | -0.31 | -0.28 | -0.17 | -0.48 |
| GPNMB (glycoprotein nmb) | 1 | 0.41 | 0.34 | 0.38 | 0.5 |
| TIA1 (TIA1 cytotoxic granule associated RNA binding protein) | 1 | 0.72 | 0.71 | 0.96 | 0.49 |
| VWA8 (von Willebrand factor A domain containing 8) | 1 | -0.39 | -0.17 | -0.65 | -0.35 |
| GPRASP2 (G protein-coupled receptor associated sorting protein 2) | 1 | -0.73 | -1.12 | -0.58 | -0.47 |
| EPG5 (ectopic P-granules 5 autophagy tethering factor) | 1 | -0.65 | -1.31 | -0.74 | 0.08 |
| ATP5MK (ATP synthase membrane subunit k) | 1 | -0.47 | -0.38 | -0.4 | -0.64 |
| PKIA (cAMP-dependent protein kinase inhibitor alpha) | 1 | -0.86 | -0.92 | -0.79 | -0.86 |
| IFT70B (intraflagellar transport 70B) | 1 | 0.49 | 0.69 | 0.36 | 0.41 |
| LOC389321 (retired record) | 1 | 0.13 | -0.06 | 0.52 | -0.07 |
| LOC401345 (retired record) | 1 | 0.52 | 0.5 | 0.44 | 0.63 |
| TM9SF2 (transmembrane 9 superfamily member 2) | 1 | -0.85 | -0.64 | -0.96 | -0.94 |
| CPPED1 (calcineurin like phosphoesterase domain containing 1) | 1 | 0.58 | 0.18 | 0.9 | 0.64 |
| OR11A1 (olfactory receptor family 11 subfamily A member 1) | 1 | 0.52 | 0.64 | 0.61 | 0.31 |
| PEX11G (peroxisomal biogenesis factor 11 gamma) | 1 | 0.01 | 0.42 | -0.36 | -0.03 |
| KRTAP4-9 (keratin associated protein 4-9) | 1 | -0.66 | -0.45 | -0.91 | -0.63 |
| SETD1B (SET domain containing 1B, histone lysine methyltransferase) | 1 | -0.44 | -0.66 | -0.42 | -0.25 |
| NIPSNAP3A (nipsnap homolog 3A) | 1 | 1.59 | 1.57 | 2.04 | 1.16 |
| DCUN1D3 (defective in cullin neddylation 1 domain containing 3) | 1 | 0.58 | 0.82 | 0.49 | 0.42 |
| G6PC2 (glucose-6-phosphatase catalytic subunit 2) | 1 | -0.08 | 0.23 | -0.28 | -0.19 |
| FBXO9 (F-box protein 9) | 1 | -0.27 | -0.28 | -0.3 | -0.23 |
| RPL32P3 (ribosomal protein L32 pseudogene 3) | 1 | 0.12 | 0.16 | 0.23 | -0.04 |
| PDXDC2P-NPIPB14P (PDXDC2P-NPIPB14P readthrough, transcribed pseudogene) | 1 | -0.05 | – | 0.13 | -0.24 |
